Compound potency records, mixed from different reports. Data source: NIAID ChemDB in PubChem.

Shared fields: growth or infection tests; organism: Mycobacterium tuberculosis

MIC50, MIC90 and the like: level of inhibition, or share of isolates inhibited. Neighbouring rows are from separate reports. ECn: concentration that inhibits the pathogen or its effect by n%. An empty or dashed field is not shown. MIC bound: limit read from a one-dose screen. Inhibition is in % at the dose shown (toxicity tests: loss of growth or viability).

smiles	tested at	strain	read by	measure	result
COc1ccccc1CCNCCNCc1ccccc1Sc1ccccc1CO	-	-	-	MIC	50 µM
O=C(NCCNC(=O)c1ccccc1O)c1ccccc1O	-	H37Rv	-	MIC	>100 µg/mL
C1=C(CCNCCNCCC2=CCCCC2)CCCC1	-	-	-	MIC	12.5 µM
CO[C@H]1/C=C/O[C@@]2(C)Oc3c(C)c(O)c4c(O)c(c5c(c4c3C2=O)NC2(CCN(CC(C)C)CC2)N=5)=NC(=O)/C(C)=C\C=C\[C@H](C)[C@H](O)[C@@H](C)[C@@H](O)[C@@H](C)[C@H](OC(C)=O)[C@@H]1C	-	Strain 76 (H526G)	-	MIC	0.25 µg/mL
CCOC(=O)Nc1cc(N(CCc2ccccc2)Cc2ccccc2)c2nc(C)oc2c1	12.5 µg/mL	H37Rv	-	inhibition	77%
CCOC(=O)C1CN(Cc2ccccc2)C(COC)C1=O	6.26 µg/mL	H37Rv	resazurin	inhibition	-9%
N#Cc1ccccc1O	-	H37Rv	-	MIC	>100 µg/mL
C[C@H]1COc2c(N3CCN(C)CC3)c(F)cc3c(=O)c(C(=O)O)cn1c23	-	DRUG-SUS	-	MBC90	0.5 µg/mL
O=C(O)COc1ccc(C(=O)/C(SS/C(C(=O)c2ccc(OCC(=O)O)c(Cl)c2Cl)=C2\C=C(c3ccc(Cl)cc3)SS2)=C2/C=C(c3ccc(Cl)cc3)SS2)c(Cl)c1Cl	12.5 µg/mL	H37Rv	BACTEC	inhibition	7%
CO[C@H]1/C=C/O[C@@]2(C)Oc3c(C)c(O)c4c(O)c(c5c(c4c3C2=O)NC2(CCN(CC(C)C)CC2)N=5)=NC(=O)/C(C)=C\C=C\[C@H](C)[C@H](O)[C@@H](C)[C@@H](O)[C@@H](C)[C@H](OC(C)=O)[C@@H]1C	-	3125 (rifampin-sensitive)	-	MBC	0.025 µg/mL
C=CCSc1nc2ccccc2c(=O)n1-c1cc(OC)c(Cl)cc1OC	-	H37Rv	BACTEC	MIC bound	>12.5 µg/mL
CO[C@H]1/C=C/O[C@@]2(C)Oc3c(C)c(O)c4c(=O)c(c5oc6cc(N7CCN(C(C)C)CC7)cc(=O)c6nc5c4c3=C2O)NC(=O)/C(C)=C\C=C\[C@H](C)[C@H](O)[C@@H](C)[C@@H](O)[C@@H](C)[C@H](OC(C)=O)[C@@H]1C	-	35 (rifampin-resistant)	-	MIC	0.2 µg/mL
NC(=O)c1ccc(CCl)cc1	-	H37Rv	-	MIC	>100 µg/mL
CO[C@H]1/C=C/O[C@@]2(C)Oc3c(C)c(O)c4c(O)c(c(/C=N/N5CCN(C)CC5)c(O)c4c3C2=O)NC(=O)/C(C)=C\C=C\[C@H](C)[C@H](O)[C@@H](C)[C@@H](O)[C@@H](C)[C@H](OC(C)=O)[C@@H]1C	-	TN657	-	MIC	1 µg/mL
CO[C@H]1/C=C/O[C@@]2(C)Oc3c(C)c(O)c4c(O)c(c5c(c4c3C2=O)NC2(CCN(CC(C)C)CC2)N=5)=NC(=O)/C(C)=C\C=C\[C@H](C)[C@H](O)[C@@H](C)[C@@H](O)[C@@H](C)[C@H](OC(C)=O)[C@@H]1C	-	Isolate 900233 drug-susceptible	-	MIC	0.125 µg/mL
FC(F)(F)c1cc(NC(=S)SCc2ccc(Cl)cc2)ccc1Cl	6.25 µg/mL	H37Rv	resazurin	inhibition	1%
Cl.Nc1cccc(CNCC(O)CNCc2cccc(N)c2)c1	-	H37Rv	-	MIC	>100 µg/mL
CCCCCCCCCCCCCCCCCCNCCNC1C2CC3CC(C2)CC1C3	-	-	-	MIC	50 µM
CC(=O)N1CCC(C2CCN(C(C)=O)CC2)CC1	-	H37Rv	-	MIC	>100 µg/mL
CCCCC(CC)CN1CN(CC(CC)CCCC)CC(C)(NCCNCc2ccc(OC)c(OC)c2)C1	-	-	-	MIC	50 µM
CCCCCCCCC(=O)O	-	H37Rv	-	MIC	25 µg/mL
CCOC(=O)Nc1cc(NC(c2ccccc2)c2ccccc2)c2nc(-c3cc(OC)c(OC)c(OC)c3)cnc2n1	-	H37Rv	-	EC50	>12.5 µg/mL
O=C(O)CC1C(=O)OC2C(COC(=O)c3cc(O)c(O)c(O)c3)OC(OC(=O)c3cc(O)c(O)c(O)c3)C(OC(=O)c3cc(O)c(O)c4c3C1C(O)C(=O)O4)C2OC(=O)c1cc(O)c(O)c(O)c1	12.5 µg/mL	H37Rv	BACTEC	inhibition	27%
NCC(=O)NCC(=O)NCC(=O)NCC(=O)NCC(=O)O	-	H37Rv	-	MIC	>100 µg/mL
CCC1CN2CCc3cc(OC)c(OC)cc3C2CC1=O	12.5 µg/mL	H37Rv	BACTEC	inhibition	14%
COc1ccc(C2CC(=O)c3cc(F)ccc3O2)cc1	12.5 µg/mL	H37Rv	-	inhibition	0%
COc1ccccc1CCNCCNC[C@]1(C)CCC[C@]2(C)c3ccc(C(C)C)cc3CC[C@@H]12	-	-	-	MIC	25 µM
Fc1ccccc1CCNCCNCCC(c1ccccc1)c1ccccc1	-	-	-	MIC	50 µM
CCOC(=O)Nc1cc(N)c2c(n1)OCC(c1ccc(OC)c(OC)c1)=N2	-	H37Rv	-	EC50	>12.5 µg/mL
C=C1C(=C)C2OC1c1cc3c(cc12)C(=O)c1ccccc1C3=O	-	H37Rv	BACTEC	MIC bound	>12.5 µg/mL
C=CCOC(=O)c1ccccc1O	-	H37Rv	-	MIC	>100 µg/mL
CCCCc1cc(C(=O)NN)c2ccccc2n1	-	H37Rv	BACTEC	MIC bound	>12.5 µg/mL
Clc1ccccc1CCNCCNC1CCCCCCC1	-	-	-	MIC	50 µM
CC(=O)Nc1ccc(S(=O)(=O)Nc2nc3ccc(C)cc3s2)cc1	-	H37Rv	-	MIC	>100 µg/mL
COc1ccc(CNCCNCCc2ccc(Cl)cc2Cl)c(OC)c1	-	-	-	MIC	50 µM
Oc1ccc(CCNCCNCc2ccccc2F)cc1	-	-	-	MIC	50 µM
Nc1cccc(-c2ccncc2)c1	-	H37Rv	-	MIC	50 µg/mL
CC1(C)OC2COC3OC(C)(C)OC3C2O1	6.25 µg/mL	H37Rv	BACTEC	inhibition	0%
C[C@H](O)CNCCNCCc1c[nH]c2ccccc12	-	-	-	MIC	25 µM
COc1ccc(/C=N/Nc2nnc3c4cccnc4c4ccccc4c3n2)cc1OC	12.5 µg/mL	H37Rv	BACTEC	inhibition	15%
C[C@@H]1[C@@H](NCCNC2CCCCCCC2)C[C@H]2C[C@@H]1C2(C)C	-	-	-	MIC	12.5 µM
NNC(=O)c1ccccc1SSc1ccccc1C(=O)NN	-	TAC-R	-	MIC	>12.5 µg/mL
C[C@H]1C[C@H](N)CN1c1cc2c(cc1F)c(=O)c(C(=O)O)cn2-c1ccc(F)cc1F	-	Drug-resistant	-	MBC90	8 µg/mL
O=C(NNC(c1ccccc1)C(F)(F)F)c1ccncc1	0.5 µM	-	BACTEC	inhibition	0%
NCC[C@H](O)C(=O)N[C@@H]1C[C@H](N)[C@@H](O[C@H]2O[C@H](CN)[C@@H](O)[C@H](O)[C@H]2O)[C@H](O)[C@H]1O[C@H]1O[C@H](CO)[C@@H](O)[C@H](N)[C@H]1O	-	TN810 (001/19)	-	MIC	>256 µg/mL
CC1=CC(=O)C(C(C)=NCCO)C(=O)O1	-	H37Rv	-	MIC	>100 µg/mL
CCC1C(=O)OCC1Cc1cnc[nH]1	12.5 µg/mL	H37Rv	BACTEC	inhibition	-1%
CCOC(=O)c1ccccc1	-	H37Rv	-	MIC	>100 µg/mL
NC(N)=NS(=O)(=O)c1ccc(N=Nc2c(O)n(-c3ccccc3)n(-c3ccccc3)c2=O)cc1	-	H37Rv	BACTEC	MIC	≥12.8 µg/mL
COc1ccc(C2CC(=O)c3ccc(OC)cc3O2)cc1	12.5 µg/mL	-	-	inhibition	0%
CC1(C)[C@@H]2CC[C@@]1(C)[C@@H](NCCNC1Cc3ccccc3C1)C2	-	-	-	MIC	50 µM
COc1ccc(/C=C/C(=O)c2ccc([N+](=O)[O-])cc2)cc1	-	H37Rv	-	EC50	<12.5 µg/mL
COc1ccc(CNCCNCCCc2ccccc2)c(OC)c1	-	-	-	MIC	25 µM
O/N=C/c1c[nH]c2ccccc12	-	H37Rv	-	MIC	>100 µg/mL
OCc1ccccc1Sc1ccccc1CNCCNCCCCc1ccccc1	-	-	-	MIC	25 µM
Nc1cccc(/C=C/C2=NCCO2)c1	-	H37Rv	-	MIC	>100 µg/mL
CCOC(=O)Nc1cc(NC/C(=N/O)c2ccc([N+](=O)[O-])cc2)c([N+](=O)[O-])c(N)n1	-	H37Rv	-	EC50	>12.5 µg/mL
O=c1cc(-c2cccc(-c3ccc4c(=O)cc(-c5ccccc5)oc4c3)c2)oc2ccccc12	-	-	-	EC50	>12.5 µg/mL
Cc1ncnc2c1ncn2/N=C/c1ccc([N+](=O)[O-])cc1	12.5 µg/mL	H37Rv	BACTEC	inhibition	11%
C[C@@H]1CN(c2c(F)c(N)c3c(=O)c(C(=O)O)cn(C4CC4)c3c2F)C[C@H](C)N1	-	ATCC 35822	-	MIC	0.125 µg/mL
CCN(CC)CCSCCN1CCOCC1.Cl	-	H37Rv	-	MIC	>100 µg/mL
NCC[C@H](O)C(=O)N[C@@H]1C[C@H](N)[C@@H](O[C@H]2O[C@H](CN)[C@@H](O)[C@H](O)[C@H]2O)[C@H](O)[C@H]1O[C@H]1O[C@H](CO)[C@@H](O)[C@H](N)[C@H]1O	-	MDR9	broth dilution / resazurin	MIC	1 µg/mL
CCOC(=O)Nc1cc2n[nH]nc2c(Cl)n1	-	H37Rv	-	EC50	>12.5 µg/mL
NC1CCN(c2nc3c(cc2F)c(=O)c(C(=O)O)cn3-c2ccc(F)cc2F)C1	-	ATCC 35822	-	MIC	>8 µg/mL
C=CCN(CC=C)C(=O)c1cnc2ccccc2c1.Cl	-	H37Rv	-	MIC	>100 µg/mL
CC(CNCC12CC3CC(CC(C3)C1)C2)NC[C@@H]1CC[C@H]2C[C@@H]1C2(C)C	-	-	-	MIC	50 µM
CCOC(=O)C1C(=O)CC(C)CC1C	-	H37Rv	-	MIC	>100 µg/mL
CCCCC(CC)CN1CN(CC(CC)CCCC)CC(C)(NCCNCc2ccc(F)cc2)C1	-	-	-	MIC	50 µM
N#Cc1ccccc1NC(=O)C(=O)c1c(O)c2ccccc2oc1=O	12.5 µg/mL	H37Rv	BACTEC	inhibition	-3%
Cc1cc(C)c(-c2c(O)c(Br)c(-c3c(C)cc(C)c(Br)c3C)c(O)c2Br)c(C)c1Br	-	H37Rv	-	MIC	25 µg/mL
CCOC(=O)/C(C#N)=C\c1ccc(N(CCC(=O)O)CCC(=O)O)c(I)c1	12.5 µg/mL	H37Rv	BACTEC	inhibition	16%
Cc1cc2c(C(C)C)c(O)c(O)c(C=O)c2c(O)c1-c1c(C)cc2c(C(C)C)c(O)c(O)c(C=O)c2c1O	-	H37Rv	-	MIC	>100 µg/mL
Cc1ccc(NC=O)cc1F	-	H37Rv	BACTEC	MIC bound	>12.5 µg/mL
COc1ccc2[nH]c(-c3ccccc3)cc(=O)c2c1	-	H37Rv	-	MIC	50 µg/mL
O=C1C(=O)c2ccccc2C(O)=C1C(C1=C(O)c2ccccc2C(=O)C1=O)c1ccccc1	-	H37Rv	BACTEC	MIC bound	>12.5 µg/mL
CCCCCCCCCCCNCCNC1CCCCCCC1	-	-	-	MIC	12.5 µM
COc1ccc2oc3c(OC)c(OC)c(OC)cc3c(=O)c2c1	-	H37Rv	BACTEC	MIC bound	>12.5 µg/mL
CC1COc2c(N3CCN(C)CC3)c(F)cc3c(=O)c(C(=O)O)cn1c23	-	ATCC 35830	-	MBC	2 µg/mL

Repeating the final 7 entries:

smiles | tested at | strain | read by | measure | result
Cc1cc2c(C(C)C)c(O)c(O)c(C=O)c2c(O)c1-c1c(C)cc2c(C(C)C)c(O)c(O)c(C=O)c2c1O | - | H37Rv | - | MIC | >100 µg/mL
Cc1ccc(NC=O)cc1F | - | H37Rv | BACTEC | MIC bound | >12.5 µg/mL
COc1ccc2[nH]c(-c3ccccc3)cc(=O)c2c1 | - | H37Rv | - | MIC | 50 µg/mL
O=C1C(=O)c2ccccc2C(O)=C1C(C1=C(O)c2ccccc2C(=O)C1=O)c1ccccc1 | - | H37Rv | BACTEC | MIC bound | >12.5 µg/mL
CCCCCCCCCCCNCCNC1CCCCCCC1 | - | - | - | MIC | 12.5 µM
COc1ccc2oc3c(OC)c(OC)c(OC)cc3c(=O)c2c1 | - | H37Rv | BACTEC | MIC bound | >12.5 µg/mL
CC1COc2c(N3CCN(C)CC3)c(F)cc3c(=O)c(C(=O)O)cn1c23 | - | ATCC 35830 | - | MBC | 2 µg/mL